Anti-infective test results gathered from many reports (values: NIAID ChemDB through PubChem).

All rows: target-level tests; organism: HIV-1; protein: Reverse transcriptase; endpoint: IC50

Blank or dashed fields: not listed here. Two numbers with a dash give a range or band. ICn: concentration for n% inhibition. Conditions beyond the fields shown may differ between rows.

smiles	strain or isolate	mutations	method	value
CCc1cc(CCc2nc3ccccc3o2)c(=O)[nH]c1C	-	RT-K103N Y188C	nucleotide incorporation	>39 µM
CCN1c2ncc(CCOc3ccc(C(=O)N=c4ccccn4O)cc3C)cc2C(=O)N(C)c2cccnc21	IIIB	RT-K103N Y181C	nucleotide incorporation / radiometric	<0.05 µM
CC(C)(C)c1ccc(-n2nnnc2SCC(=O)Nc2ccc(OCCN3CCCCC3)cc2Cl)c(Cl)c1	WT	-	PicoGreen / fluorescence	<1 µM
COc1ccc2c(c1)CCN(c1nn3c(C4CC4)nnc3c3ccccc13)C2	98US_MSC5016	-	RT activity / fluorescence	1.07 µM
CC(C)(C)c1ccc(-n2nnnc2SCC(=O)Nc2ccc(C(=O)NCc3ccc(O)c(O)c3)cc2Cl)c(Cl)c1	WT	-	PicoGreen / fluorescence	<1 µM
Cc1nnc2c3ccccc3c(N3CCc4ccc(C(=O)O)cc4C3)nn12	IIIB	-	RT activity / fluorescence	57.5 µM
CCN1c2ncc(CCOc3ccc(CC(=O)O)c4ccccc34)cc2C(=O)Nc2c(C)cc(F)nc21	-	RT-K103N Y181C	nucleotide incorporation / radiometric	0.1–1 µM
c1ccc2c(c1)CCN(c1nn3c(-c4cscn4)nnc3c3ccccc13)C2	98US_MSC5016	-	RT activity / fluorescence	1.56 µM
Cc1cc(C2CC2)c2ccccc2c1-n1c(Br)nnc1SCC(=O)Nc1ccc(S(N)(=O)=O)cc1Cl	-	RT-Y181C	nucleotide incorporation / radiometric	<0.05 µM
Nc1ccc2c(c1)CN(c1nn3c(C(F)F)nnc3c3ccccc13)CC2	KER2008	-	RT activity / fluorescence	1.03 µM
CC(C)(C#Cc1ccc(NC(=O)CSc2nnnn2-c2ccc(C3CC3)cc2Cl)c(Cl)c1)NCc1cnc[nH]1	WT	-	PicoGreen / fluorescence	<1 µM
c1ccc2c(c1)CCN(c1nn3c(C4CC4)nnc3c3ccccc13)C2	98US_MSC5016	-	RT activity / fluorescence	0.42 µM
CC(C)(C#Cc1ccc(NC(=O)CSc2nnnn2-c2cc(C(F)(F)F)ccc2Cl)c(Cl)c1F)NC(=O)c1cc[n+]([O-])cc1	WT	-	PicoGreen / fluorescence	<1 µM
CCN1c2ncc(CCOc3ccc(C(=O)c4ccc(C(=O)O)cc4)cc3C)cc2C(=O)N(C)c2cccnc21	IIIB	RT-K103N Y181C	nucleotide incorporation / radiometric	0.05–0.1 µM
CCN1c2ncc(CCOc3ccc(NC(=O)CCC(=O)O)c4ccccc34)cc2C(=O)N(C)c2cccnc21	-	RT-V106A	nucleotide incorporation / radiometric	>1 µM
CC(C)c1nnc2c3ccccc3c(N3CCc4ccc(NS(C)(=O)=O)cc4C3)nn12	KER2008	-	RT activity / fluorescence	0.87 µM
CCN1c2ncc(CCOc3ccc(CC(=O)O)c4ccccc34)cc2C(=O)Nc2c(C)cc(Cl)nc21	-	RT-Y188L	nucleotide incorporation / radiometric	>1 µM
Cc1ccc(-n2nnnc2SCC(=O)Nc2ccc(-c3ccc(CC(N)=O)cc3)cc2[N+](=O)[O-])c(Cl)c1	-	RT-K103 Y181C	PicoGreen / fluorescence	<1 µM
CCN1c2ncc(CCOc3ccc(-c4cc(Cl)c(C(=O)O)cc4F)cc3C)cc2C(=O)N(C)c2cccnc21	IIIB	RT-K103N Y181C	nucleotide incorporation / radiometric	<0.05 µM
CC(C)(C)c1ccc(-n2nnnc2SCC(=O)Nc2ccc(NC(=O)Cc3cccnc3)cc2Cl)c(Cl)c1	-	RT-K103 Y181C	PicoGreen / fluorescence	<1 µM
CCN1c2ncc(CCOc3ccc(C(=O)O)c4c3CCCC4)cc2C(=O)N(C)c2ccc(OC)nc21	-	RT-Y188L	nucleotide incorporation / radiometric	0.1–1 µM
CC(C)(C)c1ccc(-n2nnnc2SCC(=O)Nc2ccc(NC(=O)Nc3ccccc3)cc2Cl)c(Cl)c1	WT	-	PicoGreen / fluorescence	<1 µM
CCN1c2ncc(CCOc3ccc(-c4c(C)ccc[n+]4[O-])cc3C)cc2C(=O)N(C)c2cccnc21	IIIB	-	nucleotide incorporation / radiometric	0.05–0.1 µM
CC1(C)CN(CCOC(C)(C)C#Cc2ccc(NC(=O)CSc3nnnn3-c3ccc(C4CC4)cc3Cl)c(Cl)c2)C=N1	-	RT-K103 Y181C	PicoGreen / fluorescence	<1 µM
CCc1ccc(-n2c(Br)nnc2SCC(=O)Nc2ccc(C(=O)NCCN3CCCC3)cc2Cl)c2ccccc12	-	RT-Y188L	nucleotide incorporation / radiometric	>0.1 µM